A mixed list of measured activities; the numbers were collected in NIAID ChemDB.

Shared fields: tests in culture; organism: HIV-1

Rows are shuffled and stem from different studies.

compound,mutations,strain,cells,measure,read by,result
CC(C)(C)NC(=O)[C@@H]1CN(Cc2cccnc2)CCN1C[C@@H](O)C[C@@H](Cc1ccccc1)C(=O)N[C@H]1c2ccccc2C[C@H]1O,-,RF,CEM,EC50,cytopathic effect / XTT,0.01 µM
CCN[C@H]1CO[C@@H]2OCC[C@H](OC(=O)N[C@@H](Cc3ccccc3)[C@H](O)CN(CC(C)C)S(=O)(=O)c3ccc4nc(NC5CC5)sc4c3)[C@@H]21,L10F L33I M36I M46I I54V K55R I62V L63P A71V G73S V82T,NL4-3,MT-4,EC50,p24 / luminescence,0.0038 µM
Cc1cn([C@H]2C[C@H](N=[N+]=[N-])[C@@H](CO)O2)c(=O)[nH]c1=O,-,-,HeLa + HELA CD4+,EC50,syncytia,<0.001 µg/mL
Cc1ccnc2c1NC(=O)c1cccnc1N2C1CC1,RT-V106M,NNRTI-resistant (RT V106M),MAGI,EC50,β-galactosidase,2.9 µM
CCc1cc(CCc2nc3c(F)cccc3o2)c(=S)[nH]c1C,-,IIIB,MT-4,EC50,p24,<0.1 µM
Cc1nc(COc2ccc(C[C@H](NC(=O)O[C@H]3CO[C@H]4OCC[C@H]43)[C@H](O)CN(CC(C)C)S(=O)(=O)c3ccc4c(c3)OCO4)cc2)cs1,-,WT,MT-4,EC50,-,0.0011 µM
CCN[C@H]1CO[C@@H]2OCC[C@H](OC(=O)N[C@@H](Cc3cccc(OC)c3)[C@H](O)CN(CC(C)C)S(=O)(=O)c3ccc4nc(NC(C)C)sc4c3)[C@@H]21,L10I I15V K20R L24I V32I M36I M46I I54V I62V L63P K70Q V82A L88M,NL4-3,MT-4,EC50,p24 / luminescence,0.0018 µM
CC(C)c1nc(CN(C)C(=O)N[C@H](C(=O)N[C@@H](Cc2ccccc2)C[C@H](O)[C@H](Cc2ccccc2)NC(=O)OCc2cncs2)C(C)C)cs1,-,BRU,MT-2,EC50,RT activity,0.129 µM
O=C(N[C@H]1c2ccccc2OC[C@H]1O)[C@H](Cc1cccnc1)C[C@H](O)CN1CCN(Cc2ccn(-c3ccc(Cl)cc3)c2)C[C@H]1C(=O)NCC(F)(F)F,PR-L10I N37S R41K M46I I54V I62V L63P A71V V77I V82A L90M I93L,Q-60C Clinical isolate,MT-4,EC95,p24,≤0.008 µM
Cc1ccnc2c1NC(=O)c1cccnc1N2C1CC1,-,IIIB,C8166,EC50,cytopathic effect,0.032 µg/mL
Cc1cn([C@H]2C[C@H](N=[N+]=[N-])[C@@H](CO)O2)c(=O)[nH]c1=O,-,IIIB,C8166,EC50,RT activity,0.016 µM
CC(=O)c1ccc(Cn2cc(CSc3nc(Cc4c(Cl)cccc4Cl)c(C)c(=O)[nH]3)nn2)cc1,-,RES056,-,EC50,MTT,>32.58 µM
Nc1ncnc2c1ncn2CCOCP(=O)(O)O,-,LAI,PBMC,EC50,-,5.4 µM
CCc1cc(CCc2nc3c(F)ccc(F)c3o2)c(=S)[nH]c1C,-,IIIB,MT-4,EC95,p24,0.15 µM
N#Cc1ccc(Cn2cc(CSc3nc(Cc4c(Cl)cccc4Cl)cc(=O)[nH]3)nn2)cc1,-,IIIB,-,EC50,MTT,>41.12 µM
CCCCCCCOn1c(CCCCCC)nc2c(C)cccc21,-,IIIB,C8166,EC50,RT activity,40 µM
Cc1cn([C@H]2C[C@H](N=[N+]=[N-])[C@@H](CO)O2)c(=O)[nH]c1=O,-,IIIB,C8166,EC50,syncytia,<0.2 µg/mL
Cc1cn([C@H]2C[C@H](N=[N+]=[N-])[C@@H](CO)O2)c(=O)[nH]c1=O,-,CLADE C,PBMC,EC50,cytopathic effect / XTT,0.002 µM
CCc1cc(CCc2nc3c(C)ccc(C)c3o2)c(=S)[nH]c1C,-,IIIB,MT-4,EC50,p24,<0.2 µM
CC(C)(C)NC(=O)[C@@H]1CN(Cc2cccnc2)CCN1C[C@@H](O)C[C@@H](Cc1ccccc1)C(=O)N[C@H]1c2ccccc2C[C@H]1O,-,RF,MT-2,EC50,RT activity,0.0162 µM
Cc1ccc(NC(=O)CSc2nncnc2-c2ccccc2Cl)c([N+](=O)[O-])c1,-,RES056,MT-4,EC50,MTT,>22 µM
Cc1ccnc2c1NC(=O)c1cccnc1N2C1CC1,K103N,-,-,EC50,RT activity / fluorescence,>42 µM
CCc1c(CC2CCCCC2)nc(SCC(=O)c2ccccc2)[nH]c1=O,K103N,NL4-3,C8166,EC50,p24 / ELISA,0.709 µM
O=C(CSc1nncnc1-c1ccccc1Cl)Nc1ccccc1[N+](=O)[O-],-,RES056,MT-4,EC50,MTT,>11 µM
COc1ccc(Cn2cc(CSc3nc(Cc4c(Cl)cccc4Cl)c(C)c(=O)[nH]3)nn2)cc1,-,RES056,-,EC50,MTT,>28.98 µM
C[C@]1(CCP(=O)(O)O)CO[C@@H](n2cnc3c(=O)[nH]c(N)nc32)C1,-,LAI,PBMC,EC90,-,95 µM
C[C@H](Cn1cnc2c(N)ncnc21)OCP(=O)(O)O,-,LAI,TZM-bl,EC50,-,16.1 µM
Cc1cn([C@H]2C[C@H](N=[N+]=[N-])[C@@H](CO)O2)c(=O)[nH]c1=O,F227L + V106A mutant,-,MT-4,EC50,MTT,0.005 µM
O=C(O[C@H]1CN2CC[C@H](O)[C@@H]2[C@@H](O)[C@@H]1O)c1ccco1,-,GB8,JM,EC50,syncytia,1 µg/mL
COc1ccc(Cn2cc(CSc3nc(Cc4cccc5ccccc45)c(C)c(=O)[nH]3)nn2)cc1,-,IIIB,-,EC50,MTT,>26.53 µM
CCCC(=O)O[C@H]1CN2CC[C@H](O)[C@@H]2[C@@H](O)[C@@H]1O,-,-,HeLa + HELA CD4+,EC50,syncytia,<0.32 µg/mL
CCOn1c(C)nc2c(C)cccc21,-,IIIB,C8166,EC50,RT activity,8 µM
O=C(O)c1c(Br)c(Br)c(Br)c(Br)c1-c1c2ccc(=O)cc-2oc2cc(O)ccc12,-,IIIB,MAGI,EC50,β-galactosidase,41.7 µM
Cc1cc(C)cc(S(=O)(=O)c2c(C(=O)N[C@H](C)C(=O)NCc3ccncn3)[nH]c3ccc(Cl)cc23)c1,K103N/Y181C,NL4-3,MT-4,EC50,cytopathic effect / MTT / absorbance,>25.5 µM
CCc1cc(CCc2nc3c(F)cccc3o2)c(=O)[nH]c1C,-,IIIB,MT-4,EC50,p24,<0.375 µM
CN[C@H]1CO[C@@H]2OCC[C@H](OC(=O)N[C@@H](Cc3ccccc3)[C@H](O)CN(CC(C)C)S(=O)(=O)c3ccc4nc(NC5CC5)sc4c3)[C@@H]21,L10F V32I L33F M46L I54M A71V,NL4-3,MT-4,EC50,p24 / luminescence,0.0044 µM
[N-]=[N+]=N[C@@H]1C[C@@H](n2cnc3c(N)nc(Cl)nc32)O[C@H]1CO,-,-,MT-4,EC50,cytopathic effect / MTT,>10 µM
Nc1ncnc2c(C3OC(CO)C(O)C3O)c[nH]c12,-,LAV,PBMC,EC50,RT activity,0.004 µM
CC(C)Nc1cccnc1N1CCN(C(=O)c2cc3cc(NS(C)(=O)=O)ccc3[nH]2)CC1,-,IIIB,MT-4,EC50,MTT,0.035 µM
Cc1c(N)cccc1C(=O)N[C@@H](Cc1ccccc1)[C@H](O)CN(CC(C)C)S(=O)(=O)c1ccc2nc(N)sc2c1,-,IIIB,CEM,EC50,cytopathic effect / MTT,0.009 µM
Nc1nc(Cl)nc2c1ncn2[C@@H]1C=C[C@H](CO)O1,-,-,CEM + CEM-SS,EC50,RT activity,>10 µM
Nc1nc(=O)n([C@@H]2CS[C@H](CO)O2)cc1F,E138A,LAI,TZM-bl,EC50,-,6 µM
CC(C)CN(C[C@@H](O)[C@H](Cc1ccccc1)NC(=O)OCc1ccccc1)S(=O)(=O)c1ccc2sc(N)nc2c1,-,IIIB,CEM,EC50,cytopathic effect / MTT,0.102 µM
CC(C)=CCOc1cc(NC(=S)c2ccsc2C)ccc1Cl,RT-E138K,IIIB,CEM,EC50,cytopathic effect,0.006 µg/mL
Nc1ncnc2c1ncn2[C@H]1CC[C@@H](CO)O1,-,ROD,C8166,EC50,syncytia,4 µM
Cc1cccc(C(=O)O[C@H]2CN3CC[C@H](O)[C@@H]3[C@@H](O)[C@@H]2O)c1,-,GB8,JM,EC50,syncytia,7 µg/mL
O=C(N[C@H]1c2ccccc2OC[C@H]1O)[C@H](Cc1cccnc1)C[C@H](O)CN1CCN(Cc2ccn(-c3ccccc3F)c2)C[C@H]1C(=O)NCC(F)(F)F,-,NL4-3 WT,MT-4,EC50,p24,<0.015 µM
Cc1cccc(C)c1CNC(=O)[C@H]1N(C(=O)[C@@H](O)C[C@@H](Cc2ccccc2)C(=O)N[C@H]2c3ccccc3C[C@H]2O)CSC1(C)C,-,-,MT-4,EC95,p24,0.031 µM
CCc1cc(CCc2nc3cccc(Cl)c3o2)c(=O)[nH]c1C,-,IIIB,MT-4,EC50,p24,<0.1 µM
Nc1nc(Cl)nc2c1ncn2[C@H]1O[C@@H](CO)[C@@H](O)[C@@H]1O,-,-,CEM + CEM-SS,EC50,RT activity,>10 µM
Nc1ccn([C@H]2CC[C@@H](CO)O2)c(=O)n1,RT-T215Y K219Q,-,PBMC,EC50,p24,0.09 µM
Cc1cn([C@H]2C=C[C@@H](CO)O2)c(=O)[nH]c1=O,M41L/A98G/K103N/M184V/L210W/T215Y,Clinical isolate,MT-2,EC50,recombinant virus assay,1.584 µM
O=C(N[C@H]1c2ccccc2OC[C@H]1O)[C@H](Cc1cccnc1)C[C@H](O)CN1CCN(Cc2ccn(-c3cccc(Cl)c3)c2)C[C@H]1C(=O)NCC(F)(F)F,PR-L10I M46I I54V Q58E L63P I64V V77I V82F I84V L90M I93L,K-60C Clinical isolate,MT-4,EC95,p24,≤0.008 µM
CN[C@H]1CO[C@@H]2OCC[C@H](OC(=O)N[C@@H](Cc3cccc(OC)c3)[C@H](O)CN(CC(C)C)S(=O)(=O)c3ccc4nc(NC(C)C)sc4c3)[C@@H]21,-,NL4-3,MT-4,EC50,p24 / luminescence,0.03 µM
CCCOn1c(CC)nc2c(C)cccc21,-,IIIB,C8166,EC50,RT activity,6 µM
Nc1nc(=O)n([C@@H]2CS[C@H](CO)O2)cc1F,M41L/M184V/L210W/T215Y,Clinical isolate,MT-2,EC50,recombinant virus assay,>13.3 µM
Cc1cn([C@@H]2O[C@H](CO[Si](C)(C)C(C)(C)C)C3(OS(=O)(=O)C=C3N)[C@H]2O[Si](C)(C)C(C)(C)C)c(=O)n(C)c1=O,RT-K103N,IIIB,CEM,EC50,cytopathic effect,0.11 µg/mL
CC(C)CN(C[C@@H](O)[C@H](Cc1ccccc1)NC(=O)O[C@H]1CCOC1)S(=O)(=O)c1ccc(N)cc1,-,IIIB,CEM + CEM-SS,EC90,p24,0.026 µM
CC(C)CN(C[C@@H](O)[C@H](Cc1ccccc1)NC(=O)[C@H](CC(N)=O)NC(=O)c1ccc2ccccc2n1)C(=O)NC(C)(C)C,-,RF,CEM,EC50,cytopathic effect / XTT,0.02 µM
CCc1cc(OCc2nc3c(Cl)ccc(Cl)c3o2)c(=O)[nH]c1C,-,IIIB,MT-4,EC50,p24,<0.2 µM
Cc1occc1C(=S)Nc1ccc(Cl)c(/C=N/OC(C)(C)C)c1,RT-V179D,IIIB,CEM,EC50,cytopathic effect,0.17 µg/mL
O=c1[nH]c(SCc2cn(Cc3ccccc3)nn2)nc(Cc2c(Cl)cccc2Cl)c1I,-,IIIB,-,EC50,MTT,>120 µM
C#C[C@]1(CO)O[C@@H](n2cnc3c(N)nc(F)nc32)C[C@@H]1O,A114S,Clinical isolate,MT4-GFP,EC50,fluorescence,0.0021 µM
O=C(CSc1nncnc1-c1ccccc1Cl)Nc1cccnc1Cl,-,IIIB,MT-4,EC50,MTT,0.074 µM
C=CCOn1c(C=C)nc2ccc(C)cc21,-,IIIB,C8166,EC50,RT activity,16 µM
Cc1c(N)cccc1C(=O)N[C@@H](Cc1ccccc1)[C@H](O)CN(CC(C)C)S(=O)(=O)c1ccc2ncsc2c1,-,IIIB,CEM,EC50,cytopathic effect / MTT,0.021 µM
COc1ccc2nc(C=C(C)C)n(OCC=C(C)C)c2c1,-,IIIB,C8166,EC50,RT activity,16 µM
CC(C)CN(C[C@@H](O)[C@H](Cc1ccccc1)NC(=O)OCc1cccnc1)S(=O)(=O)c1ccc2ncsc2c1,-,IIIB,CEM,EC50,cytopathic effect / MTT,0.011 µM
CC(C)CN(C[C@@H](O)[C@H](Cc1ccccc1)NC(=O)O[C@H]1CCO[C@H]2OCC[C@H]21)S(=O)(=O)c1ccc2nc(NC3CC3)sc2c1,L10F K20T D30N K45I A71V V77I,NL4-3,MT-4,EC50,p24 / luminescence,0.0016 µM
O=C(N[C@H]1c2ccccc2OC[C@H]1O)[C@H](Cc1cccnc1)C[C@H](O)CN1CCN(Cc2ccn(-c3cccc(C(F)(F)F)c3)c2)C[C@H]1C(=O)NCC(F)(F)F,PR-L10I N37S R41K M46I I54V I62V L63P A71V V77I V82A L90M I93L,Q-60C Clinical isolate,MT-4,EC95,p24,≤0.008 µM

9 of the rows above, restated:

compound,mutations,strain,cells,measure,read by,result
CCN[C@H]1CO[C@@H]2OCC[C@H](OC(=O)N[C@@H](Cc3cccc(OC)c3)[C@H](O)CN(CC(C)C)S(=O)(=O)c3ccc4nc(NC(C)C)sc4c3)[C@@H]21,L10I I15V K20R L24I V32I M36I M46I I54V I62V L63P K70Q V82A L88M,NL4-3,MT-4,EC50,p24 / luminescence,0.0018 µM
Cc1cn([C@H]2C[C@H](N=[N+]=[N-])[C@@H](CO)O2)c(=O)[nH]c1=O,-,-,HeLa + HELA CD4+,EC50,syncytia,<0.001 µg/mL
O=C(N[C@H]1c2ccccc2OC[C@H]1O)[C@H](Cc1cccnc1)C[C@H](O)CN1CCN(Cc2ccn(-c3cccc(Cl)c3)c2)C[C@H]1C(=O)NCC(F)(F)F,PR-L10I M46I I54V Q58E L63P I64V V77I V82F I84V L90M I93L,K-60C Clinical isolate,MT-4,EC95,p24,≤0.008 µM
Cc1ccc(NC(=O)CSc2nncnc2-c2ccccc2Cl)c([N+](=O)[O-])c1,-,RES056,MT-4,EC50,MTT,>22 µM
Cc1cc(C)cc(S(=O)(=O)c2c(C(=O)N[C@H](C)C(=O)NCc3ccncn3)[nH]c3ccc(Cl)cc23)c1,K103N/Y181C,NL4-3,MT-4,EC50,cytopathic effect / MTT / absorbance,>25.5 µM
COc1ccc(Cn2cc(CSc3nc(Cc4c(Cl)cccc4Cl)c(C)c(=O)[nH]3)nn2)cc1,-,RES056,-,EC50,MTT,>28.98 µM
C=CCOn1c(C=C)nc2ccc(C)cc21,-,IIIB,C8166,EC50,RT activity,16 µM
Cc1nc(COc2ccc(C[C@H](NC(=O)O[C@H]3CO[C@H]4OCC[C@H]43)[C@H](O)CN(CC(C)C)S(=O)(=O)c3ccc4c(c3)OCO4)cc2)cs1,-,WT,MT-4,EC50,-,0.0011 µM
CCc1cc(CCc2nc3c(F)cccc3o2)c(=S)[nH]c1C,-,IIIB,MT-4,EC50,p24,<0.1 µM

An empty or dashed field is not shown. ECn is the concentration giving n% inhibition of infection, replication or growth.